Target: YhjC (MBP fusion) (UniProt A0A0F6B881)
Experiment: EMSA
Details: 1-16 uM protein, 10 mM Tris-HCl pH 7.5, 100 mM NaCl, 1 mM DTT, 10% glycerol, room temperature 20-30 min, recombinant protein, residues 1-299, label: none (GelRed stain), probe letters rebuilt from the primers and the genome

| Sequence | binding result |
| --- | --- |
| CTCAACCACGTTGCAGCGGCATCTTTATGTAATCGTATAAAACTCACAGGCTTCCCCGGCTCGTTTTTATTTTCCTTACTTAAGCAGAGATCATGCCATTCTTCGCTCCGCATAACCGCGCGTTGTCGCACACCCTTTCGGATACGGATGGGTAAAAATGACTCGCCAGGCGGGTTATGCGAGTCATTTTTACTCGCTTTTTGCCGCCTGAAGCGGGTTAACTCGCTGCCCGACAAGGAATAGTTACCTGGCACGGAAGATGCAAGAGAGAGGATAAGATGAGCAACAGGAGAACGCAAAATGAAACGGAACAATAAATCAGCTATCGCGCTAATTGCCCTCTCTCTTTTGGCCCTGAGCTCCGGCGCCGCCTTCGCCGGGCATCACTGGGGCAACAATG (double strand) [zraP promoter] | binds |
| TTTACGTGAGGAACCGTTTTATCGTTTGATGACAGAGTAAGTATGGGTTTGGGGAGCAACGGAACAGTAAACGCCGTTAAACAGCTATTTTAAATGCTCATTAATTTATTAATCAATAAATTACAAATTTTCATTGAAGGCTCCCCCCTTACTGACGAATTCCGGCACCGTAAAGGAATAACGCTCATGCATATTGATATGTCCGCACTGTAATGGTGAAAATTACATAAGCAAGAGCGTTTTTTGAAAAATATTATATTTAATGTTTTGTAATATGCATTTTATTGAGGTAGTGTAACTATGAGAGTTTCTGGTAGTGCGTCATCCCAAGATATAATATCACGTATAAATTCAAAAAATATCAATAATAATGATTCAAATGAAGTCAAGAGAATTAAAG (double strand) [spvD promoter] | binds |
